From paper PMC10305189, “Synthesis, Bioactivity and Molecular Docking of Nereistoxin Derivatives Containing Phosphonate” (2023)

The chains behind the UniProt entries cited, without tags or fusion partners. Residues count along the entry.
UniProt P22303, 32-614 limits assumed: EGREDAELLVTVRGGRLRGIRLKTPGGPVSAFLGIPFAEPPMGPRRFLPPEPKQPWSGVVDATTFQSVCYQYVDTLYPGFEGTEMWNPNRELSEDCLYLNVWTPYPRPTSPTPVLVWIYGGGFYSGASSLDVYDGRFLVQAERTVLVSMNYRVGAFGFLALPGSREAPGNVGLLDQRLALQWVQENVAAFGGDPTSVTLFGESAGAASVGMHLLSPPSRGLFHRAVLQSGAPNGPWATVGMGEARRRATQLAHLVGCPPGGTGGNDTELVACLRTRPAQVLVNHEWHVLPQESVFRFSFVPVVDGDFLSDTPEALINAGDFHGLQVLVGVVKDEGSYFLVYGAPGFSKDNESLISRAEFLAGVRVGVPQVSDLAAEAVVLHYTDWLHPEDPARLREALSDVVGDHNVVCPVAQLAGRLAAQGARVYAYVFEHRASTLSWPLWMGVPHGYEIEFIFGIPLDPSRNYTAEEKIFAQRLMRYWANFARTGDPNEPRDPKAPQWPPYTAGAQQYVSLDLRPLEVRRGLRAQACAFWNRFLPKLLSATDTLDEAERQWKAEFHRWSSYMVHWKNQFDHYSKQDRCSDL

Target: human acetylcholinesterase (AChE) (Homo sapiens, UniProt P22303)
Assay: AChE inhibition, modified Ellman's method (in vitro)
Conditions: 2 mmol/L, n = 3

## CN(C)C1CSSC1
5 min
  AChE Inhibition Rate (%) 5 min: 66.02%
20 min
  AChE Inhibition Rate (%) 20 min: 53.98%
30 min
  AChE Inhibition Rate (%) 30 min: 41.27%
